Experimental data as given in article PMC6780063 (Marine Drugs, 2019).

By UniProt entry, the sequences of proteins in these tests, tags left out. Where a name states a change or a piece, a line headed by the entry shows the natural chain unless it says otherwise. Residues count along the entry.
UniProt P07510, 23-517 limits assumed: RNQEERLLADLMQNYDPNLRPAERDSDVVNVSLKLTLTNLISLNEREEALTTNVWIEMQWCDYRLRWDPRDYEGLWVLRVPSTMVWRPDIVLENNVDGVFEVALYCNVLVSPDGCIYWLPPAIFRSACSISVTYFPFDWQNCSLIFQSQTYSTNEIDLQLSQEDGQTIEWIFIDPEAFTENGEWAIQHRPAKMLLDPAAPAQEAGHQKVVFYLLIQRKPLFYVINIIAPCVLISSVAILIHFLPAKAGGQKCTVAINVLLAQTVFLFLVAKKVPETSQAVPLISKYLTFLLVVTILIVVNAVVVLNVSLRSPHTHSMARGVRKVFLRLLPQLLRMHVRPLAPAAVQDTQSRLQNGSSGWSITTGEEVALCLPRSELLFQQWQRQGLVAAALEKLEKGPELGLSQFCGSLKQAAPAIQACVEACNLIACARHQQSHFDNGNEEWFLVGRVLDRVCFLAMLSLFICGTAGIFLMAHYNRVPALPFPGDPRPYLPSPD
UniProt P11230, 24-501 partner limits assumed: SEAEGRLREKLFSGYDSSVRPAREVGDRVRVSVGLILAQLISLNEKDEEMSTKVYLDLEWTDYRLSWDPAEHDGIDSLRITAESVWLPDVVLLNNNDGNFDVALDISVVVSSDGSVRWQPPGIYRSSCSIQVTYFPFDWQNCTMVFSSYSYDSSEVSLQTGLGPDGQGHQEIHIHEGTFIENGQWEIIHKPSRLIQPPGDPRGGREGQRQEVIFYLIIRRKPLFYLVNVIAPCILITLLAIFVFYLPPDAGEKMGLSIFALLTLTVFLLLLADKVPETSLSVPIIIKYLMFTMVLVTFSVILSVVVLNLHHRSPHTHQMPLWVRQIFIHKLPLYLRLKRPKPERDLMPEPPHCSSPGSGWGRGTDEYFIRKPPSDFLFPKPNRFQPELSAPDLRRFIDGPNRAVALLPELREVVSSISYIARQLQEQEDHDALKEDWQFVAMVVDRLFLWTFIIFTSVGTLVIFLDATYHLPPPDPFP
UniProt Q07001, 22-517 limits assumed: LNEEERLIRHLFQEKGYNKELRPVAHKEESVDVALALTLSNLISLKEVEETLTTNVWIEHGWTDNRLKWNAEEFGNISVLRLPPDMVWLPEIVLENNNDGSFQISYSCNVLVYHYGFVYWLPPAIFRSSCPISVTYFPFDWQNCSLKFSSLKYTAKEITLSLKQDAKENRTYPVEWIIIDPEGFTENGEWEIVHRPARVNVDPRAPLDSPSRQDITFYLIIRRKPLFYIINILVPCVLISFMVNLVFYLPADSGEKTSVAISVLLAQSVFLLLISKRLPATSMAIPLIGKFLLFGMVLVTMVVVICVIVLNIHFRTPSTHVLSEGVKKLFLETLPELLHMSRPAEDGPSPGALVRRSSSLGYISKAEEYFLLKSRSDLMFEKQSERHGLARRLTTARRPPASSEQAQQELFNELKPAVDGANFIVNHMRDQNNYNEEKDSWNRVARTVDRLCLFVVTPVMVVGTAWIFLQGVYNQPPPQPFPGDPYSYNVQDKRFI

Tests used:
[1] = biological target: α1β1γδ nAChR (Homo sapiens, UniProt P02708+P07510+P11230+Q07001); conditions: read-out: IC50 α1β1γδ; fetal muscle type; TEVC, Xenopus laevis oocytes, holding -70 mV, 200 µM ACh, Hill fit, mean ± SEM, n ≥ 3
[2] = biological target: α1β1δε nAChR (Homo sapiens, UniProt P02708+P11230+Q04844+Q07001)

## C[C@@H]1NC(=O)[C@@H]2CCCN2C(=O)[C@H](Cc2c[nH]cn2)NC(=O)[C@@H]2CSSC[C@@H](C(N)=O)NC(=O)[C@H](CC(N)=O)NC(=O)[C@H](Cc3ccccc3)NC(=O)[C@H](CCCCN)NC(=O)[C@H](CCCCN)NC(=O)CNC(=O)[C@H](CSSC[C@H](NC(=O)[C@@H](N)CCCNC(=N)N)C(=O)N2)NC1=O
[1]
  IC50: 16 nM
[2]
  IC50: 25 nM
